# Tested on: T lymphocyte
# Test: T lymphocyte IL-2 secretion test (HT-2 cell bioassay of ConA supernatant)
# Format: in vivo, BALB/c mice
# Details: IFN-γ and IL-2 groups 3×10^5 IU/kg/day, X ± SD
# Experimental: The above substances were all dissolved in 0.5 ml saline and injected intraperitoneal (i.p.) for 15 continuous days, once per day.
# Spleen cells of density 1×10^6/ml were placed onto a 96 wells cell culture plate, 100 μl/well, three parallel wells each of the assay sample and control sample per mouse. To the assay wells, 100 μl/well ConA of 100 μg/ml in RPMI-1640 was added, and 100 μl/well plain RPMI-1640 was used for the controls. The cells were incubated for 66 hrs at 37° C., 5% CO2. The cells were then pelleted by centrifugation at 150 g for 10 minutes. The supernatant was collected and stored at −20° C. for cytokines IL-2 and IFN determination.
# HT-2 cells at log phase were collected by centrifugation at 150 g for 10 minutes, and washed three times with cold Hank's solution by re-suspension and centrifugation. The collected HT-2 cells were re-suspended in RPMI-1640 and incubated at 37° C., 5% CO2 for 30 minutes. The cells were further washed twice with RPMI-1640 by re-suspension and centrifugation, and re-suspended to final concentration of 2×10^5/ml with RPMI-1640.
# The supernatant obtained in section 1.2 were diluted to the following percentage with RPMI-1640: 100%, 50%, 25%, 12.5%, 6.25%, and 3.125%.
# rIL-2 was diluted to the following concentration with RPMI-1640: 500 IU/ml, 250 IU/ml, 125 IU/ml, 62.5 IU/ml, 31.25 IU/ml, and […].
# A 96 well cell culture plate was set up with three parallel wells per combination:
# Negative control: 100 μl RPMI-1640+100 μl HT-2 cell suspension
# rIL-2 standard: 100 μl rIL-2 solution+100 μl HT-2 cell suspension
# Assay well: 100 μl diluted supernatant+100 μl HT-2 cell suspension
# The plate was incubated at 37° C., 5% CO2 for 68 hours, then centrifuged at 150 g for 15 minutes and the supernatant removed. 100 μl 0.5 mg/ml MTT in RPMI-1640 without phenolsulfonphthalein was added into each well. After shaking for 3-4 minutes to re-suspend the cells, continue to incubate for another 4 hours. Samples were then centrifuged at 150 g for 15 minutes and the supernatant was removed. To each well, 120 μl 40 mM HCl-2-propanol was added, mixed for 3-4 minutes and OD analyzed at 570 nm, referenced at 630 nm with an ELISA plate reader.
# The average OD of the three parallel wells of each dilution was taken and plotted against concentration on a semi-log paper, concentration on the X-axis. The concentration at 50% OD saturation was obtained for both the testing supernatant and rIL-2. Sample IL-2 activity=(sample dilution at 50% maximum action÷rIL-2 standard dilution at 50% maximum action)×activity of rIL-2 standard at 50% maximum action (IU/ml) 1.5 The Effect of Peptides on the Activity of T Lymphocyte in Secreting Interferon (IFN)^[6]
substance,measurement,setting,value
"IL-2: recombinant human interleukin-2, Shanghai Huaxin Biotech Inc.; positive control immunostimulant",activity of T lymphocyte in secreting IL-2,peptide 0.5 μg/kg/day i.p. 15 days,73 ± 13 IU
same,activity of T lymphocyte in secreting IL-2,peptide 5 μg/kg/day i.p. 15 days,77 ± 13 IU
same,activity of T lymphocyte in secreting IL-2,peptide 50 μg/kg/day i.p. 15 days,72 ± 12 IU
same,activity of T lymphocyte in secreting IL-2,peptide 500 μg/kg/day i.p. 15 days,70 ± 13 IU
